Values from PubChem BioAssay AID504761 (Drosophila RNAi Screening Center, 2011).

- Test: 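Insect host genes that dengue virus relies on to spread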 (primary screen)
- Cell system: D.Mel-2 cells from Drosophila
- Reagent: long dsRNA against Drosophila genes
- Treatment: infection with dengue virus type 2; dose and infection time not stated
- Measurement: 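Per well on two replicate plates, imaging gave the percent of cells positive for viral envelope protein, ranked by infection, and a nuclear count of cells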
- Scale: infection score: higher = more virus-infected cells; cell count: higher = more cells in the well
- Hit rule: 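Very low infection ranking in both replicate wells (chance probability at most 0.065), then a retest showing infection dropped 1.5-fold or more at p below 0.05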
- Calls: active = confirmed: knock-down lowers infection; inactive = not picked or not confirmed
The screen tested about 22,000 reagents; this is a random part of those that have a named target and a result. In the full data, 116 (0.52%) are marked active. 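Calls depend on retest data that are not deposited; infection was ranked per plate without normalising between plates; the unit of the infection score is not given.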 Raw values vary from plate to plate and are shown uncorrected. Not all columns of the deposit are shown. The record does not give: the amount of reagent, the time to read-out.

CG13681 (retired record) [DRSC08906] | infection score, replicate 1 = 9.94; cell count, replicate 1 = 6136; outcome = inactive
CG13681 (retired record) [DRSC08907] | infection score, replicate 1 = 6.06; cell count, replicate 1 = 6488; outcome = inactive
CG13681 (retired record) [DRSC10038] | infection score, replicate 1 = 6.04; cell count, replicate 1 = 6123; outcome = inactive
CG13681 (retired record) [DRSC10039] | infection score, replicate 1 = 7.3; cell count, replicate 1 = 5959; outcome = inactive
CG13681 (retired record) [DRSC10927] | infection score, replicate 1 = 1.49; cell count, replicate 1 = 6101; outcome = inactive
CG13681 (retired record) [DRSC10929] | infection score, replicate 1 = 7.1; cell count, replicate 1 = 7083; outcome = inactive
CG13681 (retired record) [DRSC27924] | infection score, replicate 1 = 12.2; cell count, replicate 1 = 6571; outcome = inactive
ghi (ghiberti) [DRSC08985] | infection score, replicate 1 = 5.75; cell count, replicate 1 = 5995; outcome = inactive
CG3740 [DRSC18508] | infection score, replicate 1 = 12.9; cell count, replicate 1 = 4616; outcome = inactive
MFS9 (Major Facilitator Superfamily Transporter 9) [DRSC15560] | infection score, replicate 1 = 4.54; cell count, replicate 1 = 6298; outcome = inactive
htl (heartless) [DRSC16968] | infection score, replicate 1 = 0.23; cell count, replicate 1 = 443; outcome = inactive
kek4 (kekkon 4) [DRSC03220] | infection score, replicate 1 = 7.83; cell count, replicate 1 = 6681; outcome = inactive
CG12547 [DRSC07759] | infection score, replicate 1 = 3.95; cell count, replicate 1 = 5853; outcome = inactive
CG11257 [DRSC06068] | infection score, replicate 1 = 4.01; cell count, replicate 1 = 6307; outcome = inactive
Dscam3 (Down syndrome cell adhesion molecule 3) [DRSC14525] | infection score, replicate 1 = 3.15; cell count, replicate 1 = 5742; outcome = inactive
Dscam3 (Down syndrome cell adhesion molecule 3) [DRSC16376] | infection score, replicate 1 = 5.09; cell count, replicate 1 = 5482; outcome = inactive
CG17819 [DRSC15279] | infection score, replicate 1 = 3.66; cell count, replicate 1 = 6662; outcome = inactive
CG31161 [DRSC16144] | infection score, replicate 1 = 16.2; cell count, replicate 1 = 5479; outcome = inactive
CG31161 [DRSC25099] | infection score, replicate 1 = 7.37; cell count, replicate 1 = 6473; outcome = inactive
Stlk (Ste20-like kinase) [DRSC22687] | infection score, replicate 1 = 5.19; cell count, replicate 1 = 6718; outcome = inactive
Hex-A (Hexokinase A) [DRSC18259] | infection score, replicate 1 = 5.11; cell count, replicate 1 = 6010; outcome = inactive
Hex-A (Hexokinase A) [DRSC25354] | infection score, replicate 1 = 5.21; cell count, replicate 1 = 6239; outcome = inactive

Taken from above.
CG13681 (retired record) [DRSC10038], outcome = inactive
CG13681 (retired record) [DRSC08906], infection score, replicate 1 = 9.94
